Test results as given in patent US7214506B2, “Method for treating onychomycosis” (Kaken Pharmaceutical Co., Ltd., priority 1999, dated 2007).

Test system: Trichophyton mentagrophytes KD-04 strain
Test: Determination of drug remaining in treated skin pieces placed on fungus-containing agar
Conditions: skin taken five days after the last treatment, no drug removal; FIG. 1

`C=C1CCN([C@H](C)[C@](O)(Cn2cncn2)c2ccc(F)cc2F)CC1` [KP-103, (2R,3R)-2-(2,4-difluorophenyl)-3-(4-methylenepiperidine-1-yl)-1-(1H-1,2,4-triazole-1-yl)butane-2-ol] was tested, and the “growth inhibition of fungus around treated skin pieces (drug remaining in skin)” value was “the growth of fungus was slightly inhibited”.
`N#C/C(=C1/SCC(c2ccccc2Cl)S1)n1ccnc1` (centres unmarked) [Lanoconazole, lanoconazole] was tested, and the “growth inhibition of fungus around treated skin pieces (drug remaining in skin)” value was “the growth of fungus was completely inhibited”.
